The values below come from publication PMC5864910, “Mutacin 1140 Lantibiotic Variants Are Efficacious Against Clostridium difficile Infection” (Frontiers in Microbiology, 2018).

Assay [1] relates to Staphylococcus aureus.
In assay [2] the test system is E. faecium.
The subject of assay [3] is E. faecalis.
For assay [4], the system named is Clostridium difficile.

Molecules are shown by their SMILES.

For `C=C1NC(=O)[C@H](Cc2c[nH]c3ccccc23)NC(=O)[C@H](NC(=O)[C@H](CCCCN)NC(=O)[C@@H](N)Cc2ccccc2)CSC[C@@H](C(=O)N[C@H]2C(=O)N3CCC[C@H]3C(=O)NCC(=O)N[C@H](C(=O)N[C@@H](C)C(=O)N[C@@H](C)C(=O)N/C(=C\C)C(=O)NCC(=O)N[C@@H]3CSC[C@@H]4NC(=O)[C@H](Cc5ccc(O)cc5)NC(=O)[C@@H](CS/C=C\NC4=O)NC(=O)[C@H](CC(N)=O)NC(=O)[C@H](Cc4ccccc4)NC3=O)CS[C@H]2C)NC(=O)[C@H](CC(C)C)NC1=O` [R13A], in assay [1], the “Minimum Inhibitory Concentration S. aureus ATCC 19636” value came to 1 mg/mL, the “Minimum Inhibitory Concentration S. aureus ATCC 29213” value is 8 mg/mL, the “Minimum Inhibitory Concentration S. aureus ATCC 33591” value is reported as 1 mg/mL and the “Minimum Inhibitory Concentration S. aureus ATCC 700699” value is recorded as 4 mg/mL. Moreover, in assay [1], the “Minimum Inhibitory Concentration S. aureus BAA-1717” value turned out to be 2 mg/mL, the “Minimum Inhibitory Concentration S. aureus Max” value worked out at 8 mg/mL, the “Minimum Inhibitory Concentration S. aureus Min” value came to 1 mg/mL and the “Minimum Inhibitory Concentration S. aureus Mode” value stood at 1 mg/mL. In addition, in assay [1], the “Minimum Inhibitory Concentration S. aureus Range” value was 1 to 8 mg/mL. Further, the “Minimum Inhibitory Concentration VRE ATCC 700221” value in assay [2] was found to be 4 mg/mL. The “Minimum Inhibitory Concentration VRE ATCC 51575” value in assay [3] is 16 mg/mL. In assay [4], the “Minimum Inhibitory Concentration C. difficile ATCC 9689” value was determined as 4 mg/mL and the “Minimum Inhibitory Concentration C. difficile BAA-1875” value is listed as 0.125 mg/mL.
For the compound `C=C1NC(=O)[C@H](C(C)C)NC(=O)[C@H](NC(=O)[C@H](CCCCN)NC(=O)[C@@H](N)Cc2ccccc2)CSC[C@@H](C(=O)N[C@H]2C(=O)N3CCC[C@H]3C(=O)NCC(=O)N[C@H](C(=O)N[C@@H](C)C(=O)N[C@@H](CCCNC(=N)N)C(=O)N/C(=C\C)C(=O)NCC(=O)N[C@@H]3CSC[C@@H]4NC(=O)[C@H](Cc5ccc(O)cc5)NC(=O)[C@@H](CS/C=C\NC4=O)NC(=O)[C@H](CC(N)=O)NC(=O)[C@H](Cc4ccccc4)NC3=O)CS[C@H]2C)NC(=O)[C@H](CC(C)C)NC1=O` [W4V], in assay [1], the “Minimum Inhibitory Concentration S. aureus ATCC 19636” value is 8 mg/mL, the “Minimum Inhibitory Concentration S. aureus ATCC 29213” value amounted to 16 mg/mL, the “Minimum Inhibitory Concentration S. aureus ATCC 33591” value was 2 mg/mL and the “Minimum Inhibitory Concentration S. aureus ATCC 700699” value amounted to 16 mg/mL. Also, the “Minimum Inhibitory Concentration S. aureus BAA-1717” value in assay [1] amounted to 8 mg/mL. Besides, the “Minimum Inhibitory Concentration VRE ATCC 700221” value in assay [2] is given as 8 mg/mL. The “Minimum Inhibitory Concentration VRE ATCC 51575” value in assay [3] is on record as 32 mg/mL. Also, in assay [4], the “Minimum Inhibitory Concentration C. difficile ATCC 9689” value was found to be 16 mg/mL, the “Minimum Inhibitory Concentration C. difficile BAA-1805” value worked out at 0.06299 mg/mL and the “Minimum Inhibitory Concentration C. difficile BAA-1875” value stood at 0.125 mg/mL.
As to `C=C1NC(=O)[C@H](C)NC(=O)[C@H](NC(=O)[C@H](CCCCN)NC(=O)[C@@H](N)Cc2ccccc2)CSC[C@@H](C(=O)N[C@H]2C(=O)N3CCC[C@H]3C(=O)NCC(=O)N[C@H](C(=O)N[C@@H](C)C(=O)N[C@@H](CCCNC(=N)N)C(=O)N/C(=C\C)C(=O)NCC(=O)N[C@@H]3CSC[C@@H]4NC(=O)[C@H](Cc5ccc(O)cc5)NC(=O)[C@@H](CS/C=C\NC4=O)NC(=O)[C@H](CC(N)=O)NC(=O)[C@H](Cc4ccccc4)NC3=O)CS[C@H]2C)NC(=O)[C@H](CC(C)C)NC1=O` [W4A], in assay [1], the “Minimum Inhibitory Concentration S. aureus ATCC 19636” value amounted to 16 mg/mL, the “Minimum Inhibitory Concentration S. aureus ATCC 29213” value is on record as 32 mg/mL, the “Minimum Inhibitory Concentration S. aureus ATCC 33591” value turned out to be 1 mg/mL and the “Minimum Inhibitory Concentration S. aureus ATCC 700699” value is reported as 16 mg/mL. Moreover, the “Minimum Inhibitory Concentration S. aureus BAA-1717” value in assay [1] turned out to be 8 mg/mL. The “Minimum Inhibitory Concentration VRE ATCC 700221” value in assay [2] was 16 mg/mL. Besides, the “Minimum Inhibitory Concentration VRE ATCC 51575” value in assay [3] came out at 64 mg/mL. For the same compound, in assay [4], the “Minimum Inhibitory Concentration C. difficile ATCC 9689” value was 32 mg/mL, the “Minimum Inhibitory Concentration C. difficile BAA-1805” value turned out to be 0.06299 mg/mL and the “Minimum Inhibitory Concentration C. difficile BAA-1875” value was 0.25 mg/mL.
Consider `C=C1NC(=O)[C@H](Cc2c[nH]c3ccccc23)NC(=O)[C@H](NC(=O)[C@H](CCCCN)NC(=O)[C@@H](N)Cc2ccccc2)CSC[C@@H](C(=O)N[C@H]2C(=O)N3CCC[C@H]3C(=O)NCC(=O)N[C@H](C(=O)N[C@@H](C)C(=O)N[C@@H](CCCNC(=N)N)C(=O)N/C(=C\C)C(=O)NCC(=O)N[C@@H]3CSC[C@@H]4NC(=O)[C@H](Cc5ccc(O)cc5)NC(=O)[C@@H](CS/C=C\NC4=O)NC(=O)[C@H](CC(N)=O)NC(=O)[C@H](Cc4ccc(O)cc4)NC3=O)CS[C@H]2C)NC(=O)[C@H](CC(C)C)NC1=O` [F17Y], for which, in assay [1], the “Minimum Inhibitory Concentration S. aureus ATCC 19636” value worked out at 1 mg/mL, the “Minimum Inhibitory Concentration S. aureus ATCC 29213” value came out at 2 mg/mL, the “Minimum Inhibitory Concentration S. aureus ATCC 33591” value amounted to 1 mg/mL and the “Minimum Inhibitory Concentration S. aureus ATCC 700699” value amounted to 2 mg/mL. For the same compound, in assay [1], the “Minimum Inhibitory Concentration S. aureus BAA-1717” value was 2 mg/mL, the “Minimum Inhibitory Concentration S. aureus Max” value was found to be 2 mg/mL, the “Minimum Inhibitory Concentration S. aureus Min” value was determined as 1 mg/mL and the “Minimum Inhibitory Concentration S. aureus Mode” value amounted to 2 mg/mL. In assay [1], the “Minimum Inhibitory Concentration S. aureus Range” value lay in the range of 1 to 2 mg/mL. Also, the “Minimum Inhibitory Concentration VRE ATCC 700221” value in assay [2] was 4 mg/mL. Further, the “Minimum Inhibitory Concentration VRE ATCC 51575” value in assay [3] turned out to be 8 mg/mL. For the same compound, in assay [4], the “Minimum Inhibitory Concentration C. difficile ATCC 9689” value came to 2 mg/mL and the “Minimum Inhibitory Concentration C. difficile BAA-1875” value is reported as 0.125 mg/mL.
Take `C=C1NC(=O)[C@H](Cc2c[nH]c3ccccc23)NC(=O)[C@H](NC(=O)[C@H](CCCCN)NC(=O)[C@@H](N)Cc2ccccc2)CSC[C@@H](C(=O)N[C@H]2C(=O)N3CCC[C@H]3C(=O)NCC(=O)N[C@H](C(=O)N[C@@H](C)C(=O)N[C@@H](CCCNC(=N)N)C(=O)N/C(=C\C)C(=O)NCC(=O)N[C@@H]3CSC[C@@H]4NC(=O)[C@H](Cc5ccc(O)cc5)NC(=O)[C@@H](CS/C=C\NC4=O)NC(=O)[C@H](CC(N)=O)NC(=O)[C@H](Cc4ccccc4)NC3=O)CS[C@H]2C)NC(=O)[C@H]([C@@H](C)O)NC1=O` [L6T]: in assay [1], the “Minimum Inhibitory Concentration S. aureus ATCC 19636” value came to 8 mg/mL, the “Minimum Inhibitory Concentration S. aureus ATCC 29213” value amounted to 32 mg/mL, the “Minimum Inhibitory Concentration S. aureus ATCC 33591” value is listed as 2 mg/mL and the “Minimum Inhibitory Concentration S. aureus ATCC 700699” value is recorded as 16 mg/mL. Further, the “Minimum Inhibitory Concentration S. aureus BAA-1717” value in assay [1] came to 8 mg/mL. Besides, the “Minimum Inhibitory Concentration VRE ATCC 700221” value in assay [2] amounted to 8 mg/mL. Moreover, the “Minimum Inhibitory Concentration VRE ATCC 51575” value in assay [3] amounted to 32 mg/mL. In assay [4], the “Minimum Inhibitory Concentration C. difficile ATCC 9689” value is 16 mg/mL, the “Minimum Inhibitory Concentration C. difficile BAA-1805” value came out at 0.125 mg/mL and the “Minimum Inhibitory Concentration C. difficile BAA-1875” value is 0.125 mg/mL.
As to `C=C1NC(=O)[C@H](Cc2c[nH]c3ccccc23)NC(=O)[C@H](NC(=O)[C@H](CCCCN)NC(=O)[C@@H](N)Cc2ccccc2)CSC[C@@H](C(=O)N[C@H]2C(=O)N[C@@H](Cc3c[nH]cn3)C(=O)NCC(=O)N[C@H](C(=O)N[C@@H](C)C(=O)N[C@@H](CCCNC(=N)N)C(=O)N/C(=C\C)C(=O)NCC(=O)N[C@@H]3CSC[C@@H]4NC(=O)[C@H](Cc5ccc(O)cc5)NC(=O)[C@@H](CS/C=C\NC4=O)NC(=O)[C@H](CC(N)=O)NC(=O)[C@H](Cc4ccccc4)NC3=O)CS[C@H]2C)NC(=O)[C@H](CC(C)C)NC1=O` [P9H], in assay [1], the “Minimum Inhibitory Concentration S. aureus ATCC 19636” value worked out at 4 mg/mL, the “Minimum Inhibitory Concentration S. aureus ATCC 29213” value came out at 8 mg/mL, the “Minimum Inhibitory Concentration S. aureus ATCC 33591” value was 4 mg/mL and the “Minimum Inhibitory Concentration S. aureus ATCC 700699” value came to 8 mg/mL. In addition, the “Minimum Inhibitory Concentration S. aureus BAA-1717” value in assay [1] stood at 8 mg/mL. Also, the “Minimum Inhibitory Concentration VRE ATCC 700221” value in assay [2] is on record as 4 mg/mL. Also, the “Minimum Inhibitory Concentration VRE ATCC 51575” value in assay [3] worked out at 32 mg/mL. For the same compound, in assay [4], the “Minimum Inhibitory Concentration C. difficile ATCC 9689” value stood at 32 mg/mL, the “Minimum Inhibitory Concentration C. difficile BAA-1805” value amounted to 0.25 mg/mL and the “Minimum Inhibitory Concentration C. difficile BAA-1875” value came to 1 mg/mL.
On to `C=C1NC(=O)[C@H](Cc2c[nH]c3ccccc23)NC(=O)[C@H](NC(=O)[C@H](CCCCN)NC(=O)[C@@H](N)Cc2ccccc2)CSC[C@@H](C(=O)N[C@H]2C(=O)N3CCC[C@H]3C(=O)NCC(=O)N[C@H](C(=O)N[C@@H](C)C(=O)N[C@@H](CC(C)C)C(=O)N/C(=C\C)C(=O)NCC(=O)N[C@@H]3CSC[C@@H]4NC(=O)[C@H](Cc5ccc(O)cc5)NC(=O)[C@@H](CS/C=C\NC4=O)NC(=O)[C@H](CC(N)=O)NC(=O)[C@H](Cc4ccccc4)NC3=O)CS[C@H]2C)NC(=O)[C@H](CC(C)C)NC1=O` [R13L], for which, in assay [1], the “Minimum Inhibitory Concentration S. aureus ATCC 19636” value was 2 mg/mL, the “Minimum Inhibitory Concentration S. aureus ATCC 29213” value is recorded as 4 mg/mL, the “Minimum Inhibitory Concentration S. aureus ATCC 33591” value was 2 mg/mL and the “Minimum Inhibitory Concentration S. aureus ATCC 700699” value is on record as 8 mg/mL. In addition, the “Minimum Inhibitory Concentration S. aureus BAA-1717” value in assay [1] was 4 mg/mL. Further, the “Minimum Inhibitory Concentration VRE ATCC 700221” value in assay [2] is recorded as 8 mg/mL. Moreover, the “Minimum Inhibitory Concentration VRE ATCC 51575” value in assay [3] came to 16 mg/mL. In addition, in assay [4], the “Minimum Inhibitory Concentration C. difficile ATCC 9689” value is given as 4 mg/mL and the “Minimum Inhibitory Concentration C. difficile BAA-1875” value was 0.125 mg/mL.
For the compound `C=C1NC(=O)[C@H](Cc2c[nH]c3ccccc23)NC(=O)[C@H](NC(=O)[C@H](CCSC)NC(=O)[C@@H](N)Cc2ccccc2)CSC[C@@H](C(=O)N[C@H]2C(=O)N3CCC[C@H]3C(=O)NCC(=O)N[C@H](C(=O)N[C@@H](C)C(=O)N[C@@H](CCCNC(=N)N)C(=O)N/C(=C\C)C(=O)NCC(=O)N[C@@H]3CSC[C@@H]4NC(=O)[C@H](Cc5ccc(O)cc5)NC(=O)[C@@H](CS/C=C\NC4=O)NC(=O)[C@H](CC(N)=O)NC(=O)[C@H](Cc4ccccc4)NC3=O)CS[C@H]2C)NC(=O)[C@H](CC(C)C)NC1=O` [K2M], the “Minimum Inhibitory Concentration VRE ATCC 700221” value in assay [2] turned out to be 0.25 mg/mL. Besides, the “Minimum Inhibitory Concentration VRE ATCC 51575” value in assay [3] turned out to be 0.25 mg/mL. Further, in assay [4], the “Minimum Inhibitory Concentration C. difficile ATCC 9689” value amounted to 0.125 mg/mL, the “Minimum Inhibitory Concentration C. difficile BAA-1805” value is 0.03099 mg/mL and the “Minimum Inhibitory Concentration C. difficile BAA-1875” value is listed as 0.03099 mg/mL.
